Results of unrelated studies side by side (data: NIAID ChemDB).

Shared fields: tests in culture; organism: Herpes simplex virus 1

Blank or dashed fields: not listed here.

compound | method | endpoint | strain or isolate | dose | cells | value
Nc1nc2c(ncn2COC(CO)CO)c(=O)[nH]1 | PCR | EC50 | 119681 |  |  | 0.4 µM
CCCc1cn([C@@H]2O[C@H](CO)[C@@H](O)[C@@H]2O)c(=O)[nH]c1=O |  | MIC | VR-3 |  |  | 32 µg/mL
Cc1c(NC(=O)OC(C)(C)C)ccc2nc(NC3(C(=O)N(C)CCc4ccccn4)CC3)oc(=O)c12 | plaque count | EC90 |  |  | VERO | >12.5 µM
O=c1[nH]c(=O)n([C@@H]2O[C@H](CO)[C@@H](O)[C@@H]2O)cc1/C=C/Br | plaque count | inhibition | C42 | 10 µM | VERO | >90%
Cc1c(NC(=O)OC(C)(C)C)ccc2nc(N3CCCC3(OCc3ccccc3)C(=O)N(C)CCc3cccnc3)oc(=O)c12 | plaque count | EC90 |  |  | VERO | 6.1 µM
CCOC(=O)C1=CN(COCCO)S(=O)(=O)NC1=O |  | EC50 | KOS |  | E6SM | >400 µg/mL
C/C=C/c1cn([C@H]2C[C@H](O)[C@@H](CO)O2)c(=O)[nH]c1=O | plaque count | inhibition | C42PFA-R | 10 µM | VERO | 99%
O=c1[nH]c(=O)n([C@H]2C[C@H](O)[C@@H](CO)O2)cc1/C=C/Br | virus yield | EC99 | KOS |  | PRK | 0.008 µg/mL
C/C(O)=C1\C(=N)N(COCCO)S(=O)(=O)N=C1N |  | EC50 | McIntyre |  | E6SM | >400 µg/mL
Cc1c(NC(=O)CCCNC(=O)OC(C)(C)C)ccc2nc(NC(C)(C)C(=O)N(C)CCc3ccccn3)oc(=O)c12 | plaque count | EC90 |  |  | VERO | >12.5 µM
Oc1ccc(-c2cc3c(-c4ccnc(NC5CCCC5)n4)ccc(NC4CCCC4)n3n2)cc1 | antigen / hybridisation | EC50 | SC16 |  | VERO 76 | 10.1 µM
CC(=O)OCCOCN1C(N)=CC(N)=NS1(=O)=O |  | EC50 | McIntyre |  | E6SM | >400 µg/mL
O=C(O)c1cccc(-c2cc3c(-c4ccnc(NC5CCCC5)n4)ccc(NC4CCCC4)n3n2)c1 | antigen / hybridisation | EC50 | SC16 |  | VERO 76 | 3.08 µM
CC(=O)OCCOCN1C=CC(=O)NS1(=O)=O |  | EC50 | F |  | E6SM | >400 µg/mL
Nc1cccc(-c2cc3c(-c4ccnc(NC5CCCC5)n4)ccc(NC4CCCC4)n3n2)c1 | antigen / hybridisation | EC50 | SC16 |  | VERO 76 | 0.64 µM
CC(=O)OCCOCN1C=C(C#N)C(N)=NS1(=O)=O |  | EC50 | McIntyre |  | E6SM | >400 µg/mL
c1ccc(-c2cc3c(-c4ccnc(NC5CCCC5)n4)ccc(NC4CCCC4)n3n2)cc1 | antigen / hybridisation | EC50 | SC16 |  | VERO 76 | 0.62 µM
NC1=CC(N)=NS(=O)(=O)N1COCCO |  | EC50 | McIntyre |  | E6SM | >400 µg/mL
COCC(=O)Nc1ccc2nc(NC(C)(C)C(=O)N(C)CCc3ccccn3)oc(=O)c2c1C | plaque count | EC90 |  |  | VERO | >12.5 µM
O=c1[nH]c(=O)n([C@H]2C[C@H](O)[C@@H](CO)O2)cc1I | virus yield | EC99 | KOS |  | PRK | 0.1 µg/mL
Cc1c(NC(=O)c2ccccc2I)ccc2nc(NC(C)(C)C(=O)N(C)CCc3ccccn3)oc(=O)c12 | plaque count | EC90 |  |  | VERO | >12.5 µM
O=c1[nH]c(=O)n([C@H]2C[C@H](O)[C@@H](CO)O2)cc1I |  | MIC | WT-20 |  |  | 32 µg/mL
Cc1cn([C@H]2C[C@H](O)[C@@H](CO)O2)c(=O)[nH]c1=O | plaque count | inhibition | C42 | 10 µM | VERO | 12%
Cc1cn([C@@H]2O[C@H](CO)[C@@H](O)[C@@H]2O)c(=O)[nH]c1=O |  | MIC | VR-3 |  |  | 1 µg/mL
Nc1nc2c(ncn2COC(CO)CO)c(=O)[nH]1 | plaque count | inhibition | KOS | 2 µM | WI-38 | 90%
c1ccc(-c2cccc(-c3cc4c(-c5ccnc(NC6CCCC6)n5)ccc(NC5CCCC5)n4n3)c2)cc1 | antigen / hybridisation | EC50 | SC16 |  | VERO 76 | 2.18 µM
Cc1ccccc1C(=O)Nc1ccc2nc(NC(C)(C)C(=O)N(C)CCc3ccccn3)oc(=O)c2c1C | plaque count | EC90 |  |  | VERO | >12.5 µM
COc1ccc(-c2cc3c(-c4ccnc(NC5CCCC5)n4)ccc(NC4CCCC4)n3n2)cc1 | antigen / hybridisation | EC50 | SC16 |  | VERO 76 | 0.22 µM
O=c1[nH]c(=O)n([C@H]2C[C@H](O)[C@@H](CO)O2)cc1I |  | MIC | FORD |  |  | 1.1 µg/mL
Cc1c(NC(=O)OC(C)(C)C)ccc2nc(N3CCC[C@H]3C(=O)N(C)CCc3cccnc3)oc(=O)c12 | plaque count | EC90 |  |  | VERO | >12.5 µM
c1cc(-c2ccc(NC3CCCC3)n3nc(-c4ccc(OCC5CC5)cc4)cc23)nc(NC2CCCC2)n1 | antigen / hybridisation | EC50 | SC16 |  | VERO 76 | 0.17 µM
CCc1cn([C@@H]2O[C@H](CO)[C@@H](O)[C@@H]2O)c(=O)[nH]c1=O |  | MIC | VR-3 |  |  | 3.2 µg/mL
c1ccc(-c2ccc(-c3cc4c(-c5ccnc(NC6CCC6)n5)ccc(NC5CCC5)n4n3)cc2)cc1 | antigen / hybridisation | EC50 | SC16 |  | VERO 76 | 2.79 µM
CCCCC(C)(C)[C@H](O)/C=C/[C@H]1C=CC(=O)[C@@H]1CCCCCCC(=O)O | hybridisation | EC50 | H129 |  | HFF | 4.9 µg/mL

Repeating the final 3 entries:

| compound | method | endpoint | strain or isolate | dose | cells | value |
|---|---|---|---|---|---|---|
| CCc1cn([C@@H]2O[C@H](CO)[C@@H](O)[C@@H]2O)c(=O)[nH]c1=O |  | MIC | VR-3 |  |  | 3.2 µg/mL |
| c1ccc(-c2ccc(-c3cc4c(-c5ccnc(NC6CCC6)n5)ccc(NC5CCC5)n4n3)cc2)cc1 | antigen / hybridisation | EC50 | SC16 |  | VERO 76 | 2.79 µM |
| CCCCC(C)(C)[C@H](O)/C=C/[C@H]1C=CC(=O)[C@@H]1CCCCCCC(=O)O | hybridisation | EC50 | H129 |  | HFF | 4.9 µg/mL |

Rows are shuffled and stem from different studies. Inhibition is in % at the dose shown (toxicity tests: loss of growth or viability). ECn: concentration that inhibits the pathogen or its effect by n%.